Measured values published in ChEMBL document CHEMBL3808367, “Novel HIV-1 Non-nucleoside Reverse Transcriptase Inhibitor Agents: Optimization of Diarylanilines with High Potency against Wild-Type and Rilpivirine-Resistant E138K Mutant Virus” (J Med Chem, 2016).

What was measured:
[1] = tested on: Human immunodeficiency virus 1; test: Resistance index, ratio of EC50 for rilpivirine resistant HIV1 harboring reverse transcriptase E138K mutant infected in human TZM-bl cells to EC50 for HIV1 NL4-3 infected in human TZM-bl cells; type: functional
[2] = tested on: Human immunodeficiency virus 1; test: Resistance index, ratio of EC50 for […] resistant HIV1 A17 harboring reverse transcriptase K103N/Y181C double mutant infected in human MT2 cells to EC50 for HIV1 3B infected in human MT2 cells; type: functional

Cc1cc(CCC#N)cc(C)c1Oc1cc(Nc2ccc(C#N)cc2)c(N)cc1Br
Ratio EC50 [1]: 20
Ratio EC50 [2]: 26
